Compound potency records, mixed from different reports. Data source: NIAID ChemDB in PubChem.

Common to all: tests in culture; species: Mycobacterium tuberculosis

MIC bound: limit read from a one-dose screen. MIC50, MIC90 and the like: level of inhibition, or share of isolates inhibited. ECn is the concentration giving n% inhibition of infection, replication or growth. Neighbouring rows are from separate reports. Percent inhibition refers to the dose given; in toxicity tests it is the harm to the cells. a–b is a range or a potency band. An empty or dashed field is not shown.

structure	method	setting	measure	strain	changes	cell line	dose	value
CCOC(=O)c1ccc(N2N=C3C(=CC(=O)c4ccccc43)SCC2=O)cc1	BACTEC		MIC bound	H37Rv				≤12.5 µg/mL
Clc1ccc(-n2cc(CNC3c4ccccc4-c4ccccc43)nn2)cc1	broth dilution		MIC99	Specimen 192				268 µM
COc1ccc2oc(=S)n(-c3ccc(Br)cc3)c(=S)c2c1		14 d	MIC	My 331/88				8 µM
NC(=O)c1c([N+](=O)[O-])ncn1[C@@H]1O[C@H](CO)[C@@H](O)[C@H]1O	BACTEC		MIC bound	H37Rv				>12.5 µg/mL
C[C@H]1COc2c(N3CCN(C)CC3)c(F)cc3c(=O)c(C(=O)O)cn1c23			MIC	Strain 5				0.25 µg/mL
O=C1OC2(CCCCC2)OC(=O)C1=C/C=C/c1ccc([N+](=O)[O-])o1	BACTEC		inhibition	H37Rv			12.5 µg/mL	-2%
CCN(CC)N(C)C(=O)COc1cc2c(O)c3c(O)c(C)c4c(c13)C(=O)[C@@](C)(O/C=C/[C@H](OC)[C@@H](C)[C@@H](OC(C)=O)[C@H](C)[C@H](O)[C@H](C)[C@@H](O)[C@@H](C)/C=C/C=C(/C)C(=O)N2)O4			MIC	H37Rv				0.37 µg/mL
c1ccc2c(c1)NC(c1ccc3c(c1)OCO3)S2			MIC	H37Rv				200 µg/mL
NC[C@@H]1O[C@H](O[C@H]2[C@@H](O)[C@H](O[C@@H]3[C@@H](O)[C@H](N)C[C@H](N)[C@H]3O[C@H]3O[C@H](CO)[C@@H](O)C[C@H]3N)O[C@@H]2CO)[C@H](N)[C@@H](O)[C@@H]1O[C@H]1O[C@H](CO)[C@@H](O)[C@H](O)[C@@H]1O			EC50	H37Rv (ethionamide-resistant)				25–50 µg/mL
O=C(CSc1nnc(-c2ccccn2)s1)N/N=c1/scc(-c2ccccc2)n1-c1ccc(Br)cc1			MIC	Clinical isolate 331				>80 µg/mL
CCOC(=O)C1=CNC(C(=O)OCC)C1c1cccn1-c1ccccc1	BACTEC		inhibition	H37Rv			6.25 µg/mL	36%
O=c1oc2ccc(Br)cc2c(=S)n1-c1ccc(Cl)cc1		14 d	MIC	My 331/88				0.5 µM
COc1cc(O)c2c(c1)C(=O)C1=C(C2=O)C(C)OC(C)C1O	BACTEC		inhibition	H37Rv			12.5 µg/mL	92%
C[C@H]1COc2c(N3CCN(C)CC3)c(F)cc3c(=O)c(C(=O)O)cn1c23			MIC	CSU12				0.25 µg/mL
Clc1cc(Cl)cc(-n2cc(CNC3c4ccccc4-c4ccccc43)nn2)c1	broth dilution		MIC99	Specimen 192				>246 µM
O=c1oc2ccc(Cl)cc2c(=O)n1-c1ccc(Cl)cc1			MIC	CNCTC MY331/88				4 µM
Clc1nc2nc(Cl)c(Cl)n2nc1Cl	BACTEC		inhibition	H37Rv			12.5 µg/mL	0%
O=C(CSc1nnc(-c2ccccn2)s1)N/N=c1/scc(-c2cccc(Br)c2)n1-c1ccccc1			MIC	H37Rv				40 µg/mL
COc1ccc(C2CC(=O)c3cc(F)ccc3O2)cc1			inhibition				12.5 µg/mL	0%
CO[C@H]1/C=C/O[C@@]2(C)Oc3c(C)c(O)c4c(O)c(c(/C=N/N5CCN(C)CC5)c(O)c4c3C2=O)NC(=O)/C(C)=C\C=C\[C@H](C)[C@H](O)[C@@H](C)[C@@H](O)[C@@H](C)[C@H](OC(C)=O)[C@@H]1C	resazurin		MIC	Strep-r				0.05–0.1 µg/mL
CO[C@H]1/C=C/O[C@@]2(C)Oc3c(C)c(O)c4c(O)c(c5c(c4c3C2=O)NC2(CCN(CC(C)C)CC2)N=5)=NC(=O)/C(C)=C\C=C\[C@H](C)[C@H](O)[C@@H](C)[C@@H](O)[C@@H](C)[C@H](OC(C)=O)[C@@H]1C			MIC	CSU26				≤0.125 µg/mL
Cc1ccc2oc(=S)n(-c3cccc(Cl)c3)c(=S)c2c1		21 d	MIC	My 331/88				0.5 µM
O=C(O)c1cn(C2CC2)c2c(F)c(N3CCSCC3)c(F)cc2c1=O			MIC	CSU26				4 µg/mL
O=C(Oc1cc(Cl)ccc1C(=O)Nc1ccc(C(F)(F)F)cc1)c1cnccn1		21 d	MIC	multidrug resistant Praha 1				0.25 µM
FC(F)(F)c1ccc(-n2cc(CNC3c4ccccc4-c4ccccc43)nn2)cc1	broth dilution		MIC99	Specimen 192				123.3 µM
CCN(C(=O)COc1cc2c(O)c3c(O)c(C)c4c(c13)C(=O)[C@@](C)(O/C=C/[C@H](OC)[C@@H](C)[C@@H](OC(C)=O)[C@H](C)[C@H](O)[C@H](C)[C@@H](O)[C@@H](C)/C=C/C=C(/C)C(=O)N2)O4)N(C)C			MIC	H37Rv				0.18 µg/mL
CC[C@@H](CO)NCCN[C@@H](CC)CO	broth dilution		MIC	Beijing				8 µg/mL
c1ccc(-n2cc(CSC3c4ccccc4-c4ccccc43)nn2)cc1	broth dilution		MIC99	H37Rv				141 µM
CC1CN(c2c(F)cc3c(=O)c(C(=O)O)cn(C4CC4)c3c2F)CC(C)N1			MIC	CSU22				≤0.125 µg/mL
FC(F)(F)c1ccc2c(c1)NC(c1ccccn1)S2			MIC	H37Rv				1.6 µg/mL
Nc1nc(Cl)cc(NCCCCCCCCCCCCNc2cc(Cl)nc(N)n2)n1			MIC	H37Rv				12.5 µg/mL
C[C@]1(COc2ccc(N3CCC(Oc4ccc(OC(F)(F)F)cc4)CC3)cc2)Cn2cc([N+](=O)[O-])nc2O1			MIC	Aoyama B				0.024 µg/mL
CO[C@H]1/C=C/O[C@@]2(C)Oc3c(C)c(O)c4c(=O)c(c5oc6cc(N7CCN(CC(C)C)CC7)cc(=O)c6nc5c4c3=C2O)NC(=O)/C(C)=C\C=C\[C@H](C)[C@H](O)[C@@H](C)[C@@H](O)[C@@H](C)[C@H](OC(C)=O)[C@@H]1C			MIC	37 (rifampicin-resistant)				0.5 µg/mL
COc1ccc2oc(=O)n(-c3ccc(C#N)cc3)c(=O)c2c1			MIC	CNCTC MY331/88				62.5 µM
CC(C)(N)CNC(C)(C)CO	BACTEC		MIC bound	H37Rv				>12.8 µg/mL
S=c1oc2ccc(Br)cc2c(=S)n1-c1cccc(Cl)c1		21 d	MIC	My 331/88				1 µM
NCCCNCCCCNCCCN	BACTEC		MIC	H37Rv				≥12.8 µg/mL
O=C(Oc1ccc(Cl)cc1C(=O)Nc1cccc(C(F)(F)F)c1)c1cnccn1		14 d	MIC	multidrug resistant 53/2009				1 µM
O=C(CSc1nnc(-c2ccccn2)s1)N/N=c1/scc(-c2ccccc2)n1-c1cccc([N+](=O)[O-])c1			MIC	Clinical isolate 331				>80 µg/mL
S=c1[nH]nc2n1NC(c1ccccc1)=NN2	BACTEC		MIC bound	H37Rv				>12.5 µg/mL
CCc1ccc(-n2cc(CNC3c4ccccc4-c4ccccc43)nn2)cc1	broth dilution		MIC99	H37Rv				136 µM
C[C@]12C=CC(=O)C=C1CC[C@@H]1[C@@H]2CC[C@]2(C)OC(=O)C(=O)C[C@@H]12			MIC bound	H37Rv				>6.25 µg/mL
O=C1CC(c2ccccc2)Oc2cc(F)ccc21			EC50	H37Rv				>12.5 µg/mL
O=C(O)c1cc(=O)[nH]c(=O)[nH]1	BACTEC		MIC	H37Rv				≥128 µg/mL
O=C([C@@H](O)CO)N1CC=C(c2c(F)cc(N3C[C@H](COc4ccon4)OC3=O)cc2F)CC1	broth dilution		MIC	H37Rv (ATCC 35811)				0.5 µg/mL
CCN(CC)CC(O)CNc1ccc(C)c2sc3ccc(Cl)cc3c(=O)c12	BACTEC		inhibition	H37Rv			12.5 µg/mL	100%
CCOC(=O)c1ccc(-n2c(=O)oc3ccccc3c2=O)cc1			MIC	CNCTC MY331/88				8 µM
CCCCN(CCCC)N(CC)C(=O)COc1cc2c(O)c3c(O)c(C)c4c(c13)C(=O)[C@@](C)(O/C=C/[C@H](OC)[C@@H](C)[C@@H](OC(C)=O)[C@H](C)[C@H](O)[C@H](C)[C@@H](O)[C@@H](C)/C=C/C=C(/C)C(=O)N2)O4			MIC	H37Rv				0.09 µg/mL
O=[N+]([O-])c1ccc2c(c1)NC(c1cccnc1)S2			MIC	H37Rv				0.4 µg/mL
O=C(CSc1nnc(-c2ccccn2)s1)N/N=c1/scc(-c2cccc(Cl)c2)n1-c1ccccc1			MIC	Clinical isolate 331				>80 µg/mL
CC(=O)NC[C@H]1CN(c2ccc(N3CCOCC3)c(F)c2)C(=O)O1			MIC	AZD5847-resistant 4.6	T460C Cys154Arg			16 µg/mL
CC(=O)NC[C@H]1CN(c2ccc(N3CCOCC3)c(F)c2)C(=O)O1			MIC	Strain 35				>16 µg/mL
Cc1ccccc1-n1c(SCC(=O)NC(=O)Nc2cccc(Cl)c2)nc2c(Br)cc(Br)cc2c1=O			MIC	H37Rv		VERO		6.25 µg/mL
CCC1Cn2cc([N+](=O)[O-])nc2O1			MIC	H37Rv-14A1-3547 (PA-824-resistant)				0.4 µM
O=C(Oc1ccc(Cl)cc1C(=O)Nc1ccc(Cl)c(Cl)c1)c1cnccn1		14 d	MIC	multidrug resistant 53/2009				0.5 µM
NC(=O)c1cnccn1			MIC	H3652 (niacin-negative)				1024 µg/mL
NNC(=O)c1ccncc1	broth dilution		MIC	Specimen 192				0.66 µM
CCCCCC1(C)Cn2cc([N+](=O)[O-])nc2O1			MIC	H37Rv-7A2 (PA-824-resistant)				>100 µM
O=C(Oc1ccc(Cl)cc1C(=O)Nc1ccc(C(F)(F)F)cc1)c1cnccn1		21 d	MIC	multidrug resistant 53/2009				0.25 µM
Cc1ccc2oc(=O)n(-c3cccc(F)c3)c(=S)c2c1		21 d	MIC	My 331/88				8 µM
Cc1ccc(-n2c(-c3ccccc3)cs/c2=N/NC(=O)CSc2nnc(-c3ccccn3)s2)cc1			MIC	H37Rv				>80 µg/mL
CCN(CC)CCCN=c1cc2n(-c3ccc(Cl)c(Cl)c3)c3ccccc3nc-2cc1Nc1ccc(Cl)c(Cl)c1		multidrug-resistant	MIC	2230				0.12 µg/mL
CC(=O)OC1C2=C(C)C(=O)OC2=CC2=CCCC(C)C21C	BACTEC		inhibition	H37Rv			12.5 µg/mL	7%
O=C1c2c(O)cc(O)cc2O[C@H](c2ccc(O)cc2)[C@H]1c1c(O)cc(O)c2c(=O)cc(-c3ccc(O)c(O)c3)oc12			EC50					>12.5 µg/mL
COC(=O)Nc1ccc(NC(=O)OC)c2c1C(=O)c1ccccc1C2=O	BACTEC		inhibition	H37Rv			12.5 µg/mL	83%
CO[C@H]1/C=C/O[C@@]2(C)Oc3c(C)c(O)c4c(=O)c(c5oc6cc(N7CCN(CC(C)C)CC7)cc(=O)c6nc5c4c3=C2O)NC(=O)/C(C)=C\C=C\[C@H](C)[C@H](O)[C@@H](C)[C@@H](O)[C@@H](C)[C@H](OC(C)=O)[C@@H]1C		inside macrophages	inhibition	H37Rv			5 µg/mL	97.3%
COC(=O)C(=O)c1c(C(=O)OC)nc2[nH]n(-c3ccccc3)c(=O)c2c1-c1cccc2ccccc12	BACTEC		inhibition	H37Rv			12.5 µg/mL	11%
O=C(Oc1ccc(Cl)cc1C(=O)Nc1cccc(Cl)c1)c1cnccn1		21 d	MIC	H37Rv 331/88				4 µM
O=c1oc2ccc(F)cc2c(=O)n1-c1cccc(Cl)c1			MIC	CNCTC MY331/88				16 µM
O=C(CCCC(=O)N/N=C/c1cc(O)ccc1O)N/N=C/c1cc(O)ccc1O	BACTEC		MIC	H37Rv				≥12.5 µg/mL
O=C(Oc1cc(Cl)ccc1C(=O)Nc1ccc(Cl)c(Cl)c1)c1cnccn1		21 d	MIC	H37Rv 331/88				2 µM
CO[C@H]1/C=C/O[C@@]2(C)Oc3c(C)c(O)c4c(O)c(cc(OCC(=O)N(C)C5CCCC5)c4c3C2=O)NC(=O)/C(C)=C\C=C\[C@H](C)[C@H](O)[C@@H](C)[C@@H](O)[C@@H](C)[C@H](OC(C)=O)[C@@H]1C			MIC	H37Rv				0.09 µg/mL
COc1ccc2oc(=O)n(-c3ccc(F)cc3)c(=S)c2c1		14 d	MIC	My 331/88				16 µM
Clc1ccc(-n2cc(CNC3c4ccccc4-c4ccccc43)nn2)c(Cl)c1	broth dilution		MIC99	Specimen 192				>246 µM
CC1C(c2ccccc2)=Nn2c(=O)n(-c3ccccc3)c(=O)n21	BACTEC		MIC	H37Rv				≥12.8 µg/mL
CCCCCCCCCCCC1Nc2ccccc2S1			MIC	H37Rv				100 µg/mL
NC(=S)N/N=C/C1CNCCN1	BACTEC		inhibition	H37Rv			12.5 µg/mL	65%
Cc1ccc2oc(=S)n(-c3ccc(Cl)cc3)c(=S)c2c1		14 d	MIC	My 331/88				0.5 µM